The results in this text go back to US9232799B2, “N-[(het)arylethyl)] pyrazole(thio)carboxamides and their heterosubstituted analogues” (BAYER INTELLECTUAL PROPERTY GMBH, priority 2010, dated 2016).

What is called inhibition is the share of the control response that was lost under treatment. Low readings indicate little suppression, high ones strong suppression.

This experiment relates to Fumonisin FB1 production. Briefly: Inhibition of Fumonisin FB1 produced by Fusarium proliferatum. In kind it is cell-based. As to conditions: table O.

Turning to `Cn1nc(C(F)F)c(C(=O)NCCc2ncc(C(F)(F)F)cc2Cl)c1F` [Example 187], under “dose 50 μM”, the “% inhibition FB1 production” value was found to be 100%.
In turn, `COC(c1ccc(Cl)cc1Cl)C(C)NC(=O)c1c(C(F)F)nn(C)c1F` (stereo not shown) [Example 73, N-[1-(2,4-dichlorophenyl)-1-methoxypropan-2-yl]-3-(difluoromethyl)-5-fluoro-1-methyl-1H-pyrazole-4-carboxamide] returned an inhibition at 50 µM of 100%.
With `CC(Cc1ncc(C(F)(F)F)cc1Cl)NC(=O)c1c(C(F)F)nn(C)c1F` (stereo not shown) [Example 190, N-{1-[3-chloro-5-(trifluoromethyl)pyridin-2-yl]propan-2-yl}-3-(difluoromethyl)-5-fluoro-1-methyl-1H-pyrazole-4-carboxamide], 50 µM produced 100% inhibition.
Still for that read-out and setting: then `CC(Cc1ncc(C(F)(F)F)cc1Cl)N(C(=O)c1c(C(F)F)nn(C)c1F)C1CC1` (stereo not shown) [Example 188, N-{1-[3-chloro-5-(trifluoromethyl)pyridin-2-yl]propan-2-yl}-N-cyclopropyl-3-(difluoromethyl)-5-fluoro-1-methyl-1H-pyrazole-4-carboxamide], with 99%.
